A mixed list of measured activities; the numbers were collected in NIAID ChemDB.

Common to all: tests in culture

A number after MIC or MFC names an inhibition level or a share of isolates. ECn: concentration that inhibits the pathogen or its effect by n%. Neighbouring rows are from separate reports. Inhibition is in % at the dose shown (toxicity tests: loss of growth or viability). Blank or dashed fields: not listed here.

structure	tested at	endpoint	cells	organism	strain	method	value
O=C(NNC(=O)Nc1cc(C(F)(F)F)cc(C(F)(F)F)c1)Nc1ccccc1		MIC		Klebsiella pneumoniae	KL21		>200 µM
Oc1ccccc1N=Cc1ccc2c(c1)OCO2		MIC99		Cryptococcus gattii	L-28/02		11.3 µg/mL
O=C(Nc1cc(C(F)(F)F)cc(C(F)(F)F)c1)NN1CCOCC1		MIC		Escherichia coli	ES142		>300 µM
CC(C)(O)c1cn(-c2ccc3ccccc3c2)nn1	2048 µg/mL	inhibition		Candida krusei	URM 934	broth dilution	0%
O=S(=O)([O-])c1cc(O)c2ccccc2c1	5 µg/mL	inhibition	Human amnion AV3 cells	Rhinovirus		cytopathic effect	0%
CCOC(=O)c1ccc(OCCC2CCN(c3ccc(C)nn3)CC2)cc1		EC50	KB	Rhinovirus	106F (LDL receptor group 30)	neutral red	0.298 µM
Oc1ccccc1C=Nc1ccccc1O		MIC		Cryptococcus neoformans	LMM 820	broth dilution	4 µg/mL
Nc1ccc2c(O)cc(S(=O)(=O)[O-])cc2c1S(=O)(=O)[O-]	5 µg/mL	inhibition	Human embryonic lung cells	Adenovirus	TYPE 3	cytopathic effect	30%
CC(N)CC(C(=O)Nc1cc(C(F)(F)F)cc(C(F)(F)F)c1)C(=O)Nc1cc(C(F)(F)F)cc(C(F)(F)F)c1		MIC		Escherichia coli	ES142		>300 µM
Nc1nc2c(ncn2COCCO)c(=O)[nH]1	1 µg/mL	inhibition	HELF	Varicella zoster virus	Asahikawa	plaque count	28%
Cc1ccc(-n2cc(C(C)(C)O)nn2)cc1C	2048 µg/mL	inhibition		Candida albicans	URM 4817	broth dilution	0%
CC(=O)N[C@H]1[C@H]([C@H](O)[C@H](O)CO)OC(C(=O)O)=C[C@@H]1N=C(N)N		EC50	MDCK	Influenza A virus	Influenza A/Sydney/05/97 (H3N2)		0.45 µM
C=Cc1cn([C@@H]2O[C@H](CO)[C@@H](O)[C@@H]2O)c(=O)[nH]c1=O	0.1 µg/mL	inhibition	HELF	Varicella zoster virus	Ohtomo	plaque count	100%
C=CCc1ccc(O)c(OC)c1		MIC90		Candida tropicalis	3079	turbidity	485 µg/mL
O=c1[nH]c(=O)n([C@@H]2O[C@H](CO)[C@@H](O)[C@@H]2O)cc1/C=C/Br	0.01 µg/mL	inhibition	HELF	Varicella zoster virus	YS	plaque count	100%
O=C(Nc1cc(S(=O)(=O)O)cc2cc(S(=O)(=O)O)cc(O)c12)c1ccccc1	50 µg/mL	inhibition	Human amnion AV3 cells	Herpes simplex virus		cytopathic effect	10%
Oc1ccccc1N=Cc1ccccc1		MIC99		Cryptococcus gattii	ATCC 32608		16 µg/mL
Cn1cc(C(=O)NCc2ccc(Cl)cc2)c(=O)c2cc(CN3CCOCC3)ccc21	1.8 µM	inhibition	HFF	Varicella zoster virus	GE varicella isolate	plaque count	90%
CCOC(=O)c1c(C)nc(OCCCNc2ccnc3cc(Cl)ccc23)nc1-c1ccccc1		MIC99		Cryptococcus gattii	23/10993		5.7 µg/mL
C/C=C\[C@@H]1C[C@H](C(=O)O)N[C@H]1[C@@H](NC(C)=O)[C@](C)(CCC)OC		EC50	MDCK	Influenza B virus	Memphis/3/89	plaque count	0.0067 µM
CC(C)(O)c1cn(-c2cccc([N+](=O)[O-])c2)nn1	2048 µg/mL	inhibition		Candida krusei	URM 4263	broth dilution	0%
Cc1cc(-c2ccc(N=Nc3c(N)c(S(=O)(=O)O)cc4cc(S(=O)(=O)O)ccc34)c(C)c2)ccc1N=Nc1c(N)ccc2cc(S(=O)(=O)O)ccc12	5 µg/mL	inhibition	Human amnion AV3 cells	Herpes simplex virus		cytopathic effect	0%
CC(C)(O)c1cn(-c2ccccc2)nn1	2048 µg/mL	inhibition		Candida tropicalis	URM 916	broth dilution	0%
O=C(Nc1ccc(S(=O)(=O)[O-])c2cccc(S(=O)(=O)[O-])c12)c1ccccc1	5 µg/mL	inhibition	Human conjunctiva cells	Herpes simplex virus		cytopathic effect	0%
Cc1cn([C@@H]2O[C@H](CO)[C@@H](O)[C@@H]2F)c(=O)nc1N	0.01 µg/mL	inhibition	HELF	Varicella zoster virus	Ohtomo	plaque count	100%
Cc1ccc(C(=O)Nc2ccc(S(=O)(=O)O)c3cc(S(=O)(=O)O)cc(S(=O)(=O)O)c23)cc1NC(=O)c1cccc(NC(=O)Nc2cccc(C(=O)Nc3cc(C(=O)Nc4ccc(S(=O)(=O)O)c5cc(S(=O)(=O)O)cc(S(=O)(=O)O)c45)ccc3C)c2)c1	10 µg/mL	inhibition	Human embryonic lung cells	Adenovirus	TYPE 3	cytopathic effect	0%
CCOC(=O)/C=C/[C@H](C[C@@H]1CCNC1=O)NC(=O)[C@@H](CC(=O)[C@@H](NC(=O)c1cc(C)on1)C(C)C)Cc1ccc(F)cc1		EC50	OHIO HELA-I	Rhinovirus	Isolate 46	cytopathic effect / visual reading	0.02 µg/mL
Nc1ccc(S(=O)(=O)[O-])c2c(S(=O)(=O)[O-])ccc(O)c12	5 µg/mL	inhibition	Human conjunctiva cells	Herpes simplex virus		cytopathic effect	0%
CCOC(=O)c1c(C)nc(NCCCCNc2ccnc3cc(Cl)ccc23)nc1-c1ccccc1		MIC99		Cryptococcus gattii	547/OTTI-97-PI-10		16 µg/mL
O=S(=O)([O-])c1ccc(NS(=O)(=O)c2ccccc2)c2c(S(=O)(=O)[O-])cccc12	5 µg/mL	inhibition	Human conjunctiva cells	Herpes simplex virus		cytopathic effect	0%
O=C(Nc1cccc(C2=NCCN2)c1)Nc1cccc(C(F)(F)F)c1		MIC		Klebsiella pneumoniae	KL21		106 µM
O=S(=O)([O-])c1ccc2c(S(=O)(=O)[O-])cc(S(=O)(=O)[O-])cc2c1	50 µg/mL	inhibition	Human amnion AV3 cells	Rhinovirus		cytopathic effect	10%
O=c1[nH]c(=O)n([C@H]2C[C@H](O)[C@@H](CO)O2)cc1I	10 µg/mL	inhibition	HELF	Varicella zoster virus	YS	plaque count	100%

Repeating the first 2 entries:

structure | tested at | endpoint | cells | organism | strain | method | value
O=C(NNC(=O)Nc1cc(C(F)(F)F)cc(C(F)(F)F)c1)Nc1ccccc1 |  | MIC |  | Klebsiella pneumoniae | KL21 |  | >200 µM
Oc1ccccc1N=Cc1ccc2c(c1)OCO2 |  | MIC99 |  | Cryptococcus gattii | L-28/02 |  | 11.3 µg/mL